Anti-infective test results gathered from many reports (values: NIAID ChemDB through PubChem).

All rows: tests in culture; agent: Human cytomegalovirus; method: plaque count; read-out: EC50

Lines come from different laboratories, so protocols vary.

compound	cells	strain	value
Nc1nc2c(ncn2C[C@@H]2CC[C@@H](P(=O)(O)O)O2)c(=O)[nH]1	MRC-5	C8805-37 (ganciclovir-resistant)	0.32 µg/mL
Nc1nc2c(ncn2C=C2CC2CO)c(=O)[nH]1	HFF	C8805/37-1-1	48.9 µM
Nc1nc2c(ncn2COC(CO)CO)c(=O)[nH]1	HFF	C9208/5-4-2	2.4 µM
CCCCCCCCCCCCCCCCOCCCOP(=O)(O)CO[C@H](CO)Cn1ccc(N)nc1=O	MRC-5	C8914-6 drug-resistant mutant	0.0025 µM
Nc1nc2c(ncn2COC(CO)CO)c(=O)[nH]1	MRC-5	C9207	6.7 µM
COc1nc(N)nc2c1ncn2C=C1CC1CO	HFF	AD169	5.3 µM
COc1cccc(N2CCN(C3=Nc4c(F)cccc4[C@H](CC(=O)O)N3c3cc(C(F)(F)F)ccc3OC)CC2)c1		Clinical isolate 3	0.0015 µM
Nc1nc(NC2CC2)c2ncn(C=C3CC3CO)c2n1	HFF	C8708/17-1-1	4.4 µM
OC[C@H]1O[C@@H](n2c(Cl)nc3cc(Cl)c(Cl)cc32)[C@H](O)[C@@H]1O		TOWNE	2.4 µM
CCCCCCCCCCCCCCCCCCOCCOP1(=O)CO[C@@H](Cn2ccc(N)nc2=O)CO1	MRC-5	GDGP53 (drug-resistant mutant)	0.05 µM
OC[C@H]1O[C@@H](n2c(Br)nc3cc(Cl)c(Cl)cc32)[C@H](O)[C@@H]1O	HFF	D-10 C4 (BDCRB-resistant)	>10 µg/mL
O=C(O)P(=O)(O)O	HEL	LY9990 (ganciclovir-resistant)	42 µM
OC[C@H]1O[C@@H](n2c(Br)nc3cc(Cl)c(Cl)cc32)[C@H](O)[C@@H]1O	HFF	Toledo	1.1 µM
CCCCCCCCCCCCCCCCCCOCCOP(=O)(O)CO[C@H](CO)Cn1ccc(N)nc1=O	MRC-5	759D100 drug-resistant mutant	0.0055 µM
Nc1nc2c(ncn2C=C2CC2CO)c(=O)[nH]1		VR4760 (ganciclovir-resistant)	2 µM
O[C@@H]1[C@H](O)[C@H](O)CO[C@H]1n1c(Br)nc2cc(Cl)c(Cl)cc21	HFF	C8706/13-1-1 (drug-resistant)	2.1 µM
Nc1ccn(C[C@@H](CO)OCP(=O)(O)O)c(=O)n1	HEL	U9070 (ganciclovir-resistant)	0.49 µM
O=C(NCc1ccc(Cl)cc1)c1c[nH]c2ccc(C#CCO)cc2c1=O		AD169	0.8 µM
CC(C)Nc1nc2cc(Cl)c(Cl)cc2n1[C@H]1O[C@@H](CO)[C@H](O)[C@@H]1O	MRC-5	C8912	0.21 µM

For reference, 2 entries again:

compound	cells	strain	value
COc1nc(N)nc2c1ncn2C=C1CC1CO	HFF	AD169	5.3 µM
CCCCCCCCCCCCCCCCCCOCCOP1(=O)CO[C@@H](Cn2ccc(N)nc2=O)CO1	MRC-5	GDGP53 (drug-resistant mutant)	0.05 µM

ECn: concentration that inhibits the pathogen or its effect by n%. An empty or dashed field is not shown.